# According to PMC7925099, “Identification of an Antiretroviral Small Molecule That Appears To Be a Host-Targeting Inhibitor of HIV-1 Assembly” (Journal of Virology, 2021):
# “Also recorded” adds a separate entry of the source.
# Tested on: HIV-1 NL4-3
# Assay type: cell-based
# Conditions: MT-2 cells
Structure (SMILES),"compound-specific resistance mutations after selection (37 passages, sequencing)","nonsynonymous mutations that arose upon selection (mutation no. relative to HXB2) (37 weeks, Sanger sequencing)","synonymous mutations that arose upon selection (mutation no. relative to HXB2) (37 weeks, Sanger sequencing)"
COc1cc(C)c(/C=C/C2NCCc3cc(OCc4ccccc4)c(OC)cc32)cc1OC (stereo not shown) [PAV-206],no dominant PAV-206-specific mutations in the gag or pol genes,V218M Gag (V86M p24 Gag); also recorded: N302Y Env (N272Y gp120); also recorded: D547G Env (D36G gp41); also recorded: Q5_50H Env (Q39H gp41),IATT 205 IATC Pol (IATT 50 IATC reverse trans.); also recorded: QCAG 552 QCAA Env (QCAG 41 QCAA gp41); also recorded: VGTG 583 VGTA Env (VGTG 72 VGTA gp41)
"Cc1c(O)cccc1C(=O)N[C@@H](CSc1ccccc1)[C@H](O)CN1C[C@H]2CCCC[C@H]2C[C@H]1C(=O)NC(C)(C)C [nelfinavir, reference compound]",–,A541V Env (A30V gp41); also recorded: Q550H Env (Q39H gp41); also recorded: H219Q Gag (H87Q p24 Gag); also recorded: A224T Gag (A92T p24 Gag); also recorded: L10F protease (L66F Pol); also recorded: V77I protease (V133I Pol); also recorded: L90M protease (L146M Pol); also recorded: S144R Env (S114R gp120),–
